In article PMC9426499:

What was measured:
[1] = test system: ParRC(pCW3) (Clostridium perfringens plasmid pCW3); assay: AUC sedimentation velocity; conditions: recombinant protein, protein details: C-terminal His6
[2] = test system: ParRC(pCW3) (Clostridium perfringens plasmid pCW3); assay: competition with a labelled probe; conditions: EMSA, 200x unlabeled C5 vs DIG-C5; recombinant protein; protein details: C-terminal His6
[3] = test system: ParRC(pCW3) (Clostridium perfringens plasmid pCW3); assay: EMSA; conditions: 1:1 and 1:4 DNA:protein, poly[d(I-C)]; recombinant protein; protein details: C-terminal His6

| Sequence | binding result ([1]; nonspecific at >25 uM ParR) | binding result ([1]; shift 2.7 S to 4.2 S, >25 uM ParR) | binding result [2] | binding result [3] |
| --- | --- | --- | --- | --- |
| TTTAGATTGAAAAAAATGATAATATAAAAA (double strand) [parCC C9 30 bp] | binds | – | – | – |
| AAAATGAAAAAAACATCACAATTTTACGGA (double strand) [parCC C5 30 bp] | – | binds | binds | binds |

Construct, isoform or probe ends are uncertain for at least one entry.
